Laboratory results as given in PMC6151560, “Antibacterial and Antitubercular Activities of Cinnamylideneacetophenones” (Molecules : A Journal of Synthetic Chemistry and Natural …, 2017).

Columns and labels:
[1] = tested on: MRC-5 (human lung fibroblast cell line, ATCC CCL-171); experiment: Cytotoxicity on lung cells (resazurin), MRC-5; conditions: for SI Mt (MRC-5): SI = IC50 MRC-5 / MIC M. tuberculosis; for SI Sa (MRC-5): SI = IC50 MRC-5 / MIC S. aureus
[2] = tested on: A549 (human lung adenocarcinoma epithelial cell line, ATCC CCL-185); experiment: Cytotoxicity on lung cells (resazurin), A549; assay type: cell-based

Row | Compound | SI Mt (MRC-5) [1] | SI Sa (MRC-5) [1] | SI Mt (A549) ([2]; SI = IC50 A549 / MIC M. tuberculosis) | SI Sa (A549) ([2]; SI = IC50 A549 / MIC S. aureus)
1 | O=C(/C=C/C=C/c1ccccc1)c1cccc(O)c1 [Compound 3, (2E,4E)-1-(3-hydroxyphenyl)-5-phenylpenta-2,4-dien-1-one] | 0.5 | 0.6 | – | –
2 | O=C(/C=C/C=C/c1ccccc1)c1ccc(O)cc1 [Compound 4, (2E,4E)-1-(4-hydroxyphenyl)-5-phenylpenta-2,4-dien-1-one] | 0.6 | 0.7 | 0.9 | 1.0
